Measured values from several laboratories, pooled; numbers as filed in NIAID ChemDB.

Common to all: tests in culture; agent: HIV-1

ECn is the concentration giving n% inhibition of infection, replication or growth. Blank or dashed fields: not listed here. Rows are shuffled and stem from different studies.

smiles,measure,changes,read by,strain,setting,cell line,result
Cc1cn([C@H]2CC[C@@H](CO)O2)c(=O)[nH]c1=O,EC50,-,p24,BRU,-,CEM,>31.6 µM
Cc1cn([C@H]2CC[C@@H](CO)O2)c(=O)[nH]c1=O,EC50,-,cytopathic effect / MTT,BRU,22 d,CEM-C113 + CEM/C113,>25 µM
CC(C)Nc1cccnc1N1CCN(C(=O)c2cc3cc(NS(C)(=O)=O)ccc3[nH]2)CC1,EC50,RT-K103N,cytopathic effect,NNRTI-resistant,-,CEM,2.51 µM
CCCCCCCCCCCCCCCCCOP(=O)(OC[C@H]1O[C@@H](O)[C@@H](O)[C@@H](O)[C@@H]1O)OC[C@H]1O[C@@H](n2cc(C)c(=O)[nH]c2=O)C[C@@H]1N=[N+]=[N-],EC50,-,cytopathic effect / MTT,BRU,22 d,CEM-C113 + CEM/C113,0.4 µM
CC(C)CN(C[C@@H](O)[C@H](Cc1ccccc1)NC(=O)[C@H](CC(N)=O)NC(=O)c1ccc2ccccc2n1)C(=O)NC(C)(C)C,EC90,-,RT activity,LAV-1,-,CEM,1.18 µM
CC(C)CN(C[C@@H](O)[C@H](Cc1cc(F)cc(F)c1)NC(=O)O[C@H]1CCO[C@H]2OCC[C@H]21)S(=O)(=O)c1ccc2nc(NC(C)C)sc2c1,EC50,L10I I15V K20R L24I M36I M46L I54V I62V L63P K70Q V82A L89M,p24 / luminescence,Clinical isolate,"clinical isolate, multidrug-resistant",PBMC,0.0029 µM
CC(=O)OC[C@H]1O[C@@H](SCCOP(=O)(OCCS[C@@H]2O[C@H](CO)[C@@H](O)[C@H](O)[C@H]2O)OC[C@H]2O[C@@H](n3cc(C)c(=O)[nH]c3=O)C[C@@H]2N=[N+]=[N-])[C@H](OC(C)=O)[C@@H](OC(C)=O)[C@@H]1OC(C)=O,EC50,-,RT activity,BaL,-,PBMC,0.01 µM
CCO/N=C(/c1ccco1)c1c(CC)nc2sccn12,EC50,-,RT activity,IIIB,-,MT-4,82 µM
CCCN(C)C(=O)Oc1nsnc1-c1c(Cl)ccc(N)c1Cl,EC50,RT-V103A,MTT,IIIB,-,MAGI,0.043 µM
C#C[C@@]1(CO)C=C[C@H](n2cc(C)c(=O)[nH]c2=O)O1,EC50,-,p24,IIIB,-,PBMC,0.0019 µM
Cc1nnc(C(C)C)n1C1C[C@H]2CC[C@@H](C1)N2CC[C@H](NC(=O)C1CCC(F)(F)CC1)c1ccccc1,EC50,-,luminescence,BaL,-,TZM-bl,4.2 µM
CN(C)[C@@H]1C(=O)C(C(=O)NCNc2nc3n[nH]nc3c(=O)[nH]2)=C(O)[C@@]2(O)C(=O)C3=C(O)c4c(O)cccc4[C@@](C)(O)[C@H]3C[C@@H]12,EC50,-,cytopathic effect / XTT,RF,-,CEM,100 µM
Cc1ccnc2c1NC(=O)c1cccnc1N2C1CC1,EC95,RT-M41L T215Y L100I,-,-,-,MT-4,0.4 µM
O/N=C1\C(=C\c2ccc3c(c2)OCCO3)CCCC1C(NO)c1ccc2c(c1)OCCO2,EC50,-,cytopathic effect / XTT,RF,-,CEM,>165 µM
CN[C@@H]1[C@H](O[C@@H]2OC[C@@H](O)[C@H](O)[C@H]2O)[C@@H](O)[C@H](O[C@H]2c3cc(C)c(C(=O)N[C@H](C)C(=O)O)c(O)c3-c3c(cc4c(c3O)C(=O)c3cc(OC)cc(O)c3C4=O)[C@@H]2O)O[C@@H]1C,EC50,-,syncytia,-,-,C8166,4 µg/mL
COC(=O)[C@H](C)NP(=O)(OC[C@H]1O[C@@H](N2C(=O)NC(=O)C(C)(Br)C2OC)C[C@@H]1N=[N+]=[N-])Oc1ccc(OC)cc1,EC50,RT-T215Y,RT activity,RTMF(RT-T215Y),-,PBMC,0.09 µM
CC(C)=CCN1Cc2cc(Cl)cc3[nH]c(=S)n(c23)C[C@@H]1C,EC50,-,RT activity,LAI,-,CEM + CEM-SS,0.12 µM
Cc1ccnc2c1NC(=O)c1cccnc1N2C1CC1,EC50,RT-M184V,β-galactosidase,NL4-3,-,MAGI (CCR5) + MAGI,0.066 µM
CC[C@H]1C(=O)Nc2ccc(F)cc2N1C(=O)OC(C)C,EC50,RT-K103N,cytopathic effect,NNRTI-resistant,-,CEM,0.14 µM
Cc1cn([C@H]2C[C@H](N=[N+]=[N-])[C@@H](COP(=O)(OCCS[C@@H]3O[C@H](CO)[C@@H](O)[C@H](O)[C@H]3O)OCCS[C@@H]3O[C@H](CO)[C@@H](O)[C@H](O)[C@H]3O)O2)c(=O)[nH]c1=O,EC50,-,RT activity,LAI,-,CEM + CEM-SS,0.01 µM
CC(C)CN(C[C@@H](O)[C@H](Cc1ccc(F)cc1)NC(=O)O[C@H]1CCO[C@H]2OCC[C@H]21)S(=O)(=O)c1ccc2nc(NC(C)C)sc2c1,EC50,-,p24 / luminescence,92UG037,-,PBMC,0.0013 µM
CC(C)(C)NC(=O)[C@@H]1C[C@@H]2CCCC[C@@H]2CN1C[C@@H](O)[C@H](Cc1ccccc1)NC(=O)[C@H](CC(N)=O)NC(=O)c1ccc2ccccc2n1,EC50,PR-I84V,p24,NL4-3,-,MT-4,<0.05 µM
CC(C)(C)NC(=O)[C@@H]1C[C@@H]2CCCC[C@@H]2CN1C[C@@H](O)[C@H](Cc1ccccc1)NC(=O)[C@H](CC(N)=O)NC(=O)c1ccc2ccccc2n1,EC50,PR-G48V A71T V82A,-,RF,-,MT-2,0.17 µM
Cc1cn([C@H]2C[C@H](N=[N+]=[N-])[C@@H](COP(=O)(O)O)O2)c(=O)[nH]c1=O,EC50,-,MTT,-,-,CEMx174 + CEM,0.03 µM
Cc1cn([C@@H]2O[C@H](CO[Si](C)(C)C(C)(C)C)C3(OS(=O)(=O)C=C3N)[C@H]2O[Si](C)(C)C(C)(C)C)c(=O)n(C)c1=O,EC50,RT-V106A,cytopathic effect,NNRTI-resistant,-,CEM,>15 µM
CCCc1nnc(C[C@H](C[C@H](O)CN2CCN(Cc3ccc(-c4ccc(Cl)cc4)o3)C[C@H]2C(=O)NCC(F)(F)F)C(=O)N[C@H]2c3ccccc3OC[C@H]2O)o1,EC95,PR-L10I M36I N37D M46I R57K L63P A71V G73S I84V L90M I93L,p24,V-18 Clinical isolate,-,MT-4,0.125 µM
CCc1nc2ccccn2c1C(=O)c1ccco1,EC50,-,RT activity,-,-,U1,>100 µM
Cc1ccc(C)c2c1[nH]c1c(Cl)cccc12,EC50,-,luminescence,BaL,-,TZM-bl,30.6 µM
CC(C)(c1ncc(-c2ccc(F)cc2)o1)N1CCN(C[C@@H](O)C[C@@H](Cc2nnco2)C(=O)N[C@H]2c3ccccc3OC[C@H]2O)[C@H](C(=O)NCC(F)(F)F)C1,EC95,PR-L10I N37S R41K M46I I54V I62V L63P A71V V77I V82A L90M I93L,p24,Q-60 Clinical isolate,-,MT-4,0.031 µM
COc1ccc(S(=O)(=O)N(CC(C)C)C[C@@H](O)[C@H](Cc2ccc(OC)c(Cl)c2)NC(=O)O[C@H]2CO[C@H]3OCC[C@H]32)cc1,EC50,L23I E34Q K43I M46I I50L G51A L63P A71V V82A T91A,p24 / luminescence,NL4-3,-,MT-4,0.0023 µM
CCc1nc2ccccn2c1C(=O)c1cccc(O)c1,EC50,-,RT activity,LAI,-,CEM + CEM-SS,4 µM
Cc1cn([C@H]2C[C@H](N=[N+]=[N-])[C@@H](COP(=O)(O)OC[C@H]3O[C@@H](OCCO)[C@@H](O)[C@@H](O)[C@@H]3O)O2)c(=O)[nH]c1=O,EC50,-,cytopathic effect / MTT,BRU,22 d,CEM-C113 + CEM/C113,0.6 µM
CCc1nc2sccn2c1C(=O)c1ccco1,EC50,-,RT activity,IIIB,-,MT-4,17 µM
Cc1nnc(C[C@H](C[C@H](O)CN2CCN(C(C)(C)c3ncc(-c4ccc(F)cc4)o3)C[C@H]2C(=O)NCC(F)(F)F)C(=O)N[C@H]2c3ccccc3OC[C@H]2O)o1,EC95,PR-L10I N37S R41K M46I I54V I62V L63P A71V V77I V82A L90M I93L,p24,Q-60 Clinical isolate,-,MT-4,0.031 µM
CCOP(=O)(COc1ccc(C[C@H](NC(=O)O[C@H]2CO[C@H]3OCC[C@H]32)[C@H](O)CN(CC(C)C)S(=O)(=O)c2ccc(OC)cc2)cc1)OCC,EC50,-,-,IIIB,-,MT-2 + MT-4,0.0035 µM
CN(C)C1C(=O)C(C(=O)NCNC(CCS(C)=O)C(=O)[O-])=C(O)C2(O)C(=O)C3=C(O)c4c(O)cccc4C(C)(O)C3CC12.[Na+],EC50,-,cytopathic effect / XTT,RF,-,CEM,100 µM
Cc1ccnc2c1NC(=O)c1cccnc1N2C1CC1,EC50,-,microscopy,IIIB,-,CEM,0.032 µM
CCCCN1C(=O)[C@@H]([C@H](O)C2CCCCC2)NC(=O)C12CCN(Cc1ccc(Oc3ccc(C(=O)O)cc3)cc1)CC2,EC50,-,p24,JR-FL R5,-,PBMC,0.0002 µM
Cc1nnc(C[C@H](C[C@H](O)CN2CCN(Cc3ccc(-c4ccc(Cl)cc4)o3)C[C@H]2C(=O)NCC(F)(F)F)C(=O)N[C@H]2c3ccccc3OC[C@H]2O)o1,EC50,PR-L10I N37S R41K M46I I54V I62V L63P A71V V77I V82A L90M I93L,p24,Q-60 Clinical isolate,-,MT-4,<0.031 µM
O=C(C[C@@H](O)CCc1ccc(O)c(O)c1)O[C@H]1Cc2c(O)cc(O)cc2O[C@@H]1c1ccc(O)c(O)c1,EC50,-,cytopathic effect / XTT,RF,-,CEM,21.1 µM
COC(=O)N[C@H](C(=O)N[C@@H](Cc1ccccc1)[C@@H](O)CN(Cc1ccc(-c2ccccn2)cc1)NC(=O)[C@@H](NC(=O)OC)C(C)(C)C)C(C)(C)C,EC50,L10F V32I M46I I54M A71V I84V,p24 / luminescence,NL4-3,-,MT-4,0.42 µM
CCCc1nnc(C[C@H](C[C@H](O)CN2CCN(C(C)(C)c3ncc(-c4ccc(F)cc4)o3)C[C@H]2C(=O)NCC(F)(F)F)C(=O)N[C@H]2c3ccccc3OC[C@H]2O)o1,EC50,PR-L10I N37S R41K M46I I54V I62V L63P A71V V77I V82A L90M I93L,p24,Q-60 Clinical isolate,-,MT-4,<0.008 µM
CC(=O)OC[C@H]1O[C@@H](SCCOP(=O)(OCS[C@@H]2O[C@H](COC(C)=O)[C@@H](OC(C)=O)[C@H](OC(C)=O)[C@H]2OC(C)=O)OC[C@H]2O[C@@H](n3cc(C)c(=O)[nH]c3=O)C[C@@H]2N=[N+]=[N-])[C@H](OC(C)=O)[C@@H](OC(C)=O)[C@@H]1OC(C)=O,EC50,-,RT activity,BaL,-,PBMC,0.06 µM
CN/N=C(/c1nc2ccc([N+](=O)[O-])cc2[nH]c1=O)C(O)c1ccc(C(O)/C(=N/NC)c2nc3ccc([N+](=O)[O-])cc3[nH]c2=O)cc1,EC50,-,cytopathic effect / XTT,RF,-,CEM,>78 µM
Cc1cn([C@H]2C[C@H](N=[N+]=[N-])[C@@H](CO)O2)c(=O)[nH]c1=O,EC50,-,p24,JRFL R6,-,PBMC,0.007 µM
CCC[C@@H](c1ccc(C(F)(F)F)cc1)N1CCN(C2(C)CCN(C(=O)c3c(C)ncnc3C)CC2)C[C@@H]1C,EC90,-,-,JRFL Clinical isolates,-,PBMC,0.00001 µM
Nc1ccn([C@H]2CC[C@@H](CO)O2)c(=O)n1,EC50,-,p24,Isolate 8093,-,PBMC,0.11 µM
Cc1ncnc(C)c1C(=O)N1CCC(C)(N2CCN([C@@H](Cc3ccccc3)c3ccc(C(F)(F)F)cc3)[C@@H](C)C2)CC1,EC90,-,-,ADA-M Clinical isolates,-,PBMC,0.00004 µM
O=C(N[C@H]1c2ccccc2OC[C@H]1O)[C@H](Cc1nnc(-c2ccccc2)o1)C[C@H](O)CN1CCN(Cc2ccc(-c3ccc(Cl)cc3)o2)C[C@H]1C(=O)NCC(F)(F)F,EC50,-,p24,NL4-3 WT,-,MT-4,<0.0156 µM
Cc1cn([C@@H]2C[C@H](CO)[C@@H](O)C2)c(=O)[nH]c1=O,EC50,-,cytopathic effect / MTT,-,-,MT-4,>0.07 µg/mL
Cc1ccc(C)c2c1[nH]c1cc(Cl)ccc12,EC50,-,luminescence,NL4-3,-,TZM-bl,3.5 µM
CC[C@H]1OC(=O)[C@H](C)[C@@H](O[C@H]2C[C@@](C)(OC)[C@@H](O)[C@H](C)O2)[C@H](C)[C@@H](O[C@@H]2O[C@H](C)C[C@H](N(C)C)[C@H]2O)[C@](C)(O)C[C@@H](C)C(=O)[C@H](C)[C@@H](O)[C@]1(C)O,EC90,-,RT activity,LAV-1,-,CEM,107 µg/mL
CC(=O)O[C@@]12C[C@@H](C)[C@@]3(O)[C@@H](C=C(CO)C[C@]4(O)C(=O)C(C)=C[C@@H]34)[C@@H]1C2(C)C,EC50,-,cytopathic effect / MTT,NL4-3,-,MT-4,0.06 µg/mL
CCCc1nnc(C[C@H](C[C@H](O)CN2CCN(C(C)(C)c3ncc(-c4ccc(Cl)cc4)o3)C[C@H]2C(=O)NCC(F)(F)F)C(=O)N[C@H]2c3ccccc3OC[C@H]2O)o1,EC95,PR-L10I N37S R41K M46I I54V I62V L63P A71V V77I V82A L90M I93L,p24,Q-60 Clinical isolate,-,MT-4,≤0.008 µM
Cc1cn([C@H]2C[C@H](N=[N+]=[N-])[C@@H](CO)O2)c(=O)[nH]c1=O,EC50,-,p24,BRU,-,U-937,0.2 µM
Cc1cn([C@@H]2O[C@H](CO[Si](C)(C)C(C)(C)C)[C@@]3(OS(=O)(=O)C=C3N)[C@H]2O[Si](C)(C)C(C)(C)C)c(=O)[nH]c1=O,EC50,-,trypan blue,IIIB,-,MT-4,0.036 µM
O=C1N(Cc2ccc(CO)cc2)[C@H](Cc2ccccc2)[C@H](O)[C@@H](O)[C@@H](Cc2ccccc2)N1Cc1ccc(CO)cc1,EC50,PR-M46I L63P,p24,NL4-3,-,MT-4,<0.4 µM
CCc1nc2ccccn2c1C(=O)c1ccccc1,EC50,-,RT activity,IIIB,-,MT-4,77 µM

3 of the rows above, restated:

smiles | measure | changes | read by | strain | setting | cell line | result
C#C[C@@]1(CO)C=C[C@H](n2cc(C)c(=O)[nH]c2=O)O1 | EC50 | - | p24 | IIIB | - | PBMC | 0.0019 µM
Cc1cn([C@H]2C[C@H](N=[N+]=[N-])[C@@H](COP(=O)(OCCS[C@@H]3O[C@H](CO)[C@@H](O)[C@H](O)[C@H]3O)OCCS[C@@H]3O[C@H](CO)[C@@H](O)[C@H](O)[C@H]3O)O2)c(=O)[nH]c1=O | EC50 | - | RT activity | LAI | - | CEM + CEM-SS | 0.01 µM
Cc1ccnc2c1NC(=O)c1cccnc1N2C1CC1 | EC50 | - | microscopy | IIIB | - | CEM | 0.032 µM